From article PMC11032465, “Structure and design of Langya virus glycoprotein antigens” (2024)

Key:
[1] = target: LayV F I167F/S186P ectodomain fused to a C-terminal GCN4 trimerization motif (Langya virus); assay: negative-stain EM
[2] = target: LayV F N95C/A114C ectodomain fused to a C-terminal GCN4 trimerization motif (Langya virus); assay: negative-stain EM

Substance | stoichiometry N [1] | stoichiometry N [2]
LayV F I167F/S186P ectodomain fused to a C-terminal GCN4 trimerization motif (domain or fragment) | 3 | –
LayV F N95C/A114C ectodomain fused to a C-terminal GCN4 trimerization motif (domain or fragment) | – | 3
